PSTVd loop 6 mutant pool in Nicotiana benthamiana

The measurements come from Wu et al. 2024 (doi:10.1371/journal.ppat.1012142).

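Three N. benthamiana plants were inoculated with the whole mutant pool. Progeny were sequenced from the inoculated region (day 5), the margin of the inoculated leaf (day 10) and systemic leaves (day 12).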

Region: loop 6 of PSTVd (intermediate strain), upper and lower strand joined, each 5' to 3', the first 5 letters being the upper strand, closing pairs included. Wild type: UGACCGCGAG. Varied positions (N): UNNNCGNNNG.

Numbers give reads per thousand; 0 = not seen among the reads, higher = more abundant.
Each site shows the three plants.
"Pool" is the share in the plasmid pool used as inoculum, on the same scale.
The inoculated region was read from the minus strand, the other sites from the plus strand.
IR is the inoculated region, LM the leaf margin, Sys the systemic leaves.
Wild type was 20.7 per thousand in the pool and the most common sequence in every sample (inoculated region 195, 198, 203; leaf margin 629, 591, 734; systemic leaves 942, 870, 868).
The authors trace changes outside the varied positions to PCR and sequencing errors or to mutation in the plant; presence does not show that a variant is infectious alone.
With 36,220-57,551 reads a sample, very low values are single reads.

| sequence | pool | IR | LM | Sys |
|---|---|---|---|---|
| UGAGCGCGAG | 0.327 | 0.104 / 0.251 / 0.111 | 0.387 / 0.126 / 0.0464 | 0.126 / 0.364 / 0.185 |
| UGAGCGCGCG | 0.222 | 0.104 / 0.0719 / 0.0922 | 0 / 0 / 0.0232 | 0 / 0 / 0 |
| UGAGCGCGGG | 0.248 | 0.156 / 0.0898 / 0.0922 | 0.0276 / 0 / 0 | 0 / 0 / 0 |
| UGAGCGCGUG | 0.248 | 0.122 / 0.144 / 0.111 | 0.0276 / 0 / 0 | 0 / 0 / 0 |
| UGAGCGCUAG | 0.196 | 0.104 / 0.0898 / 0.0922 | 0 / 0 / 0.0232 | 0 / 0 / 0 |
| UGAGCGCUCG | 0.392 | 0.104 / 0.0180 / 0.129 | 0.0552 / 0 / 0.0232 | 0 / 0 / 0 |
| UGAGCGCUGG | 0.183 | 0.139 / 0.0898 / 0.0738 | 0 / 0 / 0.0232 | 0 / 0 / 0 |
| UGAGCGCUUG | 0.275 | 0.191 / 0.0719 / 0 | 0.0828 / 0 / 0.0232 | 0 / 0 / 0 |
| UGAGCGGAAG | 0.157 | 0.747 / 0.701 / 0.424 | 0.0552 / 0.126 / 0.139 | 0 / 0 / 0.0410 |
| UGAGCGGACG | 0.209 | 0.226 / 0.0719 / 0.148 | 0.0276 / 0 / 0 | 0 / 0 / 0 |
| UGAGCGGAGG | 0.314 | 0.0695 / 0.126 / 0.111 | 0 / 0.0252 / 0.0232 | 0 / 0 / 0 |
| UGAGCGGAUG | 0.235 | 0.782 / 0.647 / 0.479 | 0.193 / 0 / 0 | 0.0180 / 0.0606 / 0.0205 |
| UGAGCGGCAG | 0.118 | 0.712 / 0.754 / 0.498 | 0.0276 / 0.0504 / 0.0928 | 0 / 0.0606 / 0.0410 |
| UGAGCGGCCG | 0.0915 | 0.104 / 0.0359 / 0.111 | 0 / 0 / 0.0464 | 0 / 0 / 0 |
| UGAGCGGCGG | 0.340 | 0.174 / 0.0719 / 0.0553 | 0 / 0 / 0.0232 | 0 / 0 / 0 |
| UGAGCGGCUG | 0.131 | 0.0869 / 0.0180 / 0.129 | 0 / 0 / 0 | 0.0180 / 0.0404 / 0.0410 |
| UGAGCGGGAC | 0.0131 | 0.400 / 0.736 / 0.350 | 0.0276 / 0.101 / 0.116 | 0 / 0.0202 / 0.0820 |
| UGAGCGGGAG | 0.183 | 0.608 / 4.54 / 6.23 | 1.24 / 1.36 / 0.835 | 0.198 / 0.606 / 0.431 |
| UGAGCGGGCG | 0.144 | 0.0695 / 0.0719 / 0.0184 | 0.0276 / 0 / 0.0464 | 0 / 0 / 0 |
| UGAGCGGGGG | 0.157 | 0.782 / 0.593 / 0.553 | 0.0276 / 0.126 / 0.0696 | 0 / 0.121 / 0.0205 |
| UGAGCGGGUG | 0.196 | 0.521 / 0.754 / 0.535 | 0.0276 / 0.0504 / 0.0928 | 0.0180 / 0.0404 / 0.0820 |
| UGAGCGGUAG | 0.314 | 0.799 / 0.844 / 0.498 | 0.0552 / 0.126 / 0.0696 | 0.0180 / 0.222 / 0.0615 |
| UGAGCGGUCG | 0.301 | 0.104 / 0.144 / 0.0738 | 0 / 0 / 0 | 0 / 0 / 0 |
| UGAGCGGUGG | 0.222 | 0.156 / 0.234 / 0.111 | 0.0828 / 0 / 0 | 0 / 0 / 0 |
| UGAGCGGUUG | 0.314 | 0.0869 / 0.198 / 0.111 | 0 / 0 / 0 | 0.0180 / 0.0606 / 0.0820 |
| UGAGCGUAAG | 0.170 | 0.660 / 0.862 / 0.516 | 0.0828 / 0.151 / 0.0464 | 0 / 0 / 0 |
| UGAGCGUACG | 0.222 | 0.0174 / 0.0539 / 0.0738 | 0 / 0 / 0 | 0 / 0 / 0 |
| UGAGCGUAGG | 0.327 | 0.122 / 0.0539 / 0.0553 | 0 / 0 / 0 | 0 / 0 / 0.0205 |
| UGAGCGUAGU | 0.0131 | 0 / 0 / 0 | 0 / 0 / 0 | 0 / 0 / 0 |
| UGAGCGUAUG | 0.458 | 0.0869 / 0.0898 / 0.148 | 0.497 / 0 / 0 | 0 / 0.0202 / 0 |
| UGAGCGUCAG | 0.144 | 0.747 / 0.683 / 0.424 | 0.276 / 0.0757 / 0.186 | 0 / 0 / 0.0410 |
| UGAGCGUCCG | 0.222 | 0.122 / 0.0898 / 0.0922 | 0 / 0 / 0.0232 | 0 / 0 / 0 |
| UGAGCGUCGG | 0.222 | 0.104 / 0.0359 / 0.0369 | 0 / 0 / 0 | 0 / 0 / 0 |
| UGAGCGUCUG | 0.248 | 0.0695 / 0.0719 / 0.129 | 0 / 0 / 0.0232 | 0 / 0 / 0.0205 |
| UGAGCGUGAG | 0.261 | 0.817 / 0.593 / 0.572 | 0.110 / 0.0757 / 0.0232 | 0 / 0.0606 / 0.0205 |
| UGAGCGUGCG | 0.157 | 0.0348 / 0.0539 / 0.0553 | 0 / 0 / 0 | 0 / 0 / 0 |
| UGAGCGUGGG | 0.222 | 0.0869 / 0.0719 / 0.111 | 0 / 0 / 0 | 0 / 0 / 0 |
| UGAGCGUGUG | 0.170 | 0.174 / 0.0719 / 0.0184 | 0 / 0 / 0 | 0 / 0 / 0 |
| UGAGCGUUAG | 0.301 | 0.817 / 0.934 / 0.627 | 0.110 / 0 / 0 | 0 / 0 / 0 |
| UGAGCGUUCG | 0.183 | 0.104 / 0.0898 / 0.0738 | 0.0828 / 0 / 0 | 0 / 0 / 0 |
| UGAGCGUUGG | 0.288 | 0.139 / 0.0180 / 0.0922 | 0 / 0 / 0.0232 | 0 / 0 / 0 |
| UGAGCGUUUG | 0.471 | 0.0869 / 0.108 / 0.0738 | 0.0276 / 0 / 0 | 0 / 0 / 0 |
| UGAGCUACGG | 0.0131 | 0 / 0 / 0 | 0 / 0 / 0 | 0 / 0 / 0 |
| UGAGCUCGAG | 0.0131 | 0 / 0 / 0 | 0 / 0 / 0 | 0 / 0 / 0 |
| UGAGCUGUCC | 0.0131 | 0 / 0 / 0 | 0 / 0 / 0 | 0 / 0.0202 / 0 |
| UGAGCUGUGG | 0.0131 | 0 / 0 / 0 | 0 / 0 / 0 | 0 / 0 / 0 |
| UGAUCGAAAG | 0.170 | 0.712 / 0.754 / 0.443 | 0.138 / 0.0504 / 0.0696 | 0 / 0 / 0 |
| UGAUCGAACG | 0.261 | 0.156 / 0.0719 / 0.0369 | 0 / 0 / 0.0232 | 0 / 0 / 0 |
| UGAUCGAAGG | 0.131 | 0.0521 / 0.0359 / 0.0738 | 0.0276 / 0 / 0.0464 | 0 / 0 / 0 |
| UGAUCGAAUG | 0.366 | 0.0869 / 0.108 / 0.0369 | 0 / 0 / 0.0464 | 0 / 0 / 0 |
| UGAUCGACAG | 0.209 | 0.191 / 0.162 / 0.148 | 0 / 0 / 0.0232 | 0 / 0 / 0 |
| UGAUCGACCA | 0.0131 | 0 / 0 / 0 | 0 / 0 / 0 | 0 / 0 / 0 |
| UGAUCGACCG | 0.157 | 0.0869 / 0.0898 / 0.0738 | 0.0552 / 0 / 0 | 0 / 0 / 0 |
| UGAUCGACGG | 0.248 | 0.156 / 0.108 / 0.111 | 0.0276 / 0 / 0.0232 | 0 / 0 / 0.0205 |